Where only a bound is given, the exact number is not on record here.

The assay concerns Hong Kong/2369/2009 (H1N1) H275Y oseltamivir resistant. The assay is described as follows: Inhibition of viral cytopathic effect (CPE), neutral red. The assay is classed as cell-based, influenza virus. The following applies: read-out: 50% effective concentration (EC50); MDCK cells, 3 to 4 days.

In the case of `CCC(CC)O[C@@H]1C=C(C(=O)O)C[C@H](N)[C@H]1NC(C)=O` [Oseltamivir Carboxylate, Oseltamivir carboxylate], the EC50 was over 100 µM.

For the origin of these results see patent US20130023585A1, “Neuraminidase Inhibitors” (TSRL, INC., priority 2010, published 2013).
